Test results reported in patent US20100284992A1 (priority 2006, published 2010).

Biological target: Pseudomonas aeruginosa hemolytic phospholipase C PlcHR2 variant T178A (Thr178Ala) (Pseudomonas aeruginosa, UniProt P06200, T178A)
Assay: ρ-Nitrophenyl-Phosphorylcholine (NPPC) enzymatic assay, T178A PlcHR2 mutant
Settings: substrate NPPC; 100 mM Tris-HCl (pH 7.2), 25% glycerol, 37° C.; T178A 0.05 μg/ml; four independent determinations

Compound `C[N+](C)(C)CCOP(=O)([O-])Oc1ccc([N+](=O)[O-])cc1` [NPPC, ρ-nitrophenyl-phosphorylcholine] has a Vmax of 4.85 ± 1 µmol/min/mg.
